One experiment deals with NS3/4A protease gt 3a (Hepatitis C virus genotype 3a, UniProt Q81258). The experiment in a line: HCV NS3 protease time-resolved fluorescence (TRF) assay, NS3/4A inhibitory activity (Ki), gt 3a. It is filed as biochemical. The note with it: read-out: Enzyme Activity gt 3a Ki; genotype 3a NS3/4A. As to the method:
(§1) The HCV NS3 protease inhibitory activity of the present compounds may be tested using assays known in the art. One such assay is HCV NS3 protease time-resolved fluorescence (TRF) assay as described below and in International Patent Application Publication WO2006/102087. Other examples of such assays are described in e.g., International Patent Application Publication WO2005/046712. HCV NS3 protease inhibitors, such as those described herein have a Ki less than 50 μM, such as less than 10 μM, and less than 100 nM. Ki is determined by an NS3 protease assay. The assay is performed in a final volume of 100 μl in assay buffer containing 50 mM HEPES, pH 7.5, 150 mM NaCl, 15% glycerol, 0.15% TRITON X-100, 10 mM DTT, and 0.1% PEG 8000. […] Product fluorescence is detected using either a VICTOR V2 or FUSION fluorophotometer (Perkin Elmer Life and Analytical Sciences) with excitation at 340 nm and emission at 615 nm with a 400 μs delay. […]
(§2) One such assay is HCV NS3 protease time-resolved fluorescence (TRF) assay as described below and in Mao et al., Anal Biochem. 373:1-8, 2008 and International Patent Application Publication WO 2006/102087. […] Product fluorescence is detected using either a VICTOR V2 or FUSION fluorophotometer (Perkin Elmer Life and Analytical Sciences) with excitation at 340 nm and emission at 615 nm with a 400 μs delay. […]

Amino acid sequences for entries named in this document (tags omitted). A change or cut given only in a name is not applied to a line headed by its entry. Residues count along the entry.
UniProt Q81258, 1033-1663 limits assumed: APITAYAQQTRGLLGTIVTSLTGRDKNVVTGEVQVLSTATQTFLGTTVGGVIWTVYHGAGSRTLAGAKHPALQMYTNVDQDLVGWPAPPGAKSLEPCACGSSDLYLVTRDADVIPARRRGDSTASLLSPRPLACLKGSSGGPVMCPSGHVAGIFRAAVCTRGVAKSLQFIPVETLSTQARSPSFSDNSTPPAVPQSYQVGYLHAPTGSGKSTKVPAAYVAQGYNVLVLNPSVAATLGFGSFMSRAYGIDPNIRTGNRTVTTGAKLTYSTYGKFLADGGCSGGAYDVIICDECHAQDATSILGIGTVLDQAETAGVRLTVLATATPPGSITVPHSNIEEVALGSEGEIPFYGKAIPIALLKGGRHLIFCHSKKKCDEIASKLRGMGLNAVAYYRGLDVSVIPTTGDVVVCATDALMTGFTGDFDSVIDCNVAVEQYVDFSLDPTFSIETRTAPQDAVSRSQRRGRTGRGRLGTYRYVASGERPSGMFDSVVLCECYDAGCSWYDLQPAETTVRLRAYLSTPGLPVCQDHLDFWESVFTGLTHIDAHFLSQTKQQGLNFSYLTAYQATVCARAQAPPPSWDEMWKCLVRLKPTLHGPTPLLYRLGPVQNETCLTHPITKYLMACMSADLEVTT
UniProt Q81258, 1664-1717 partner limits assumed: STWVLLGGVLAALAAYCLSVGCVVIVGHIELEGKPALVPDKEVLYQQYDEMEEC
UniProt P26663, 1658-1711 partner limits assumed: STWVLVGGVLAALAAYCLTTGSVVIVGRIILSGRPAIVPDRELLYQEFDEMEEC
UniProt P26663, 1027-1657 limits assumed: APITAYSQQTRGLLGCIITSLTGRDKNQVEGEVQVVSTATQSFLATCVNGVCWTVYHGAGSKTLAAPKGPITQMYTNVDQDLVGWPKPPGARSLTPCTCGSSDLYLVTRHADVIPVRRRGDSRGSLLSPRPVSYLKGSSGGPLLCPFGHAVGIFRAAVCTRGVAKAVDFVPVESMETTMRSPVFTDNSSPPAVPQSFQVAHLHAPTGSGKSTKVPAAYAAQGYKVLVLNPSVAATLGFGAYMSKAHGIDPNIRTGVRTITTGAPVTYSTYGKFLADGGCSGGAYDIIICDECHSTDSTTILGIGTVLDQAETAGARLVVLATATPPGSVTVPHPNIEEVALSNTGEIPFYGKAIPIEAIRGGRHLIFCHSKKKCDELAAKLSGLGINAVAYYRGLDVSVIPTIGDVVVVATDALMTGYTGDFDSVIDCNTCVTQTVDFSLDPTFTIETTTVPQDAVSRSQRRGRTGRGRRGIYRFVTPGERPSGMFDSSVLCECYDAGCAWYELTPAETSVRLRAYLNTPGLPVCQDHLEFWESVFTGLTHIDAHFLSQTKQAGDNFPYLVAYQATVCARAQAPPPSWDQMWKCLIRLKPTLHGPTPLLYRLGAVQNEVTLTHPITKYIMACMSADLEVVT
UniProt P26663, 1027-1657 A1182V limits assumed: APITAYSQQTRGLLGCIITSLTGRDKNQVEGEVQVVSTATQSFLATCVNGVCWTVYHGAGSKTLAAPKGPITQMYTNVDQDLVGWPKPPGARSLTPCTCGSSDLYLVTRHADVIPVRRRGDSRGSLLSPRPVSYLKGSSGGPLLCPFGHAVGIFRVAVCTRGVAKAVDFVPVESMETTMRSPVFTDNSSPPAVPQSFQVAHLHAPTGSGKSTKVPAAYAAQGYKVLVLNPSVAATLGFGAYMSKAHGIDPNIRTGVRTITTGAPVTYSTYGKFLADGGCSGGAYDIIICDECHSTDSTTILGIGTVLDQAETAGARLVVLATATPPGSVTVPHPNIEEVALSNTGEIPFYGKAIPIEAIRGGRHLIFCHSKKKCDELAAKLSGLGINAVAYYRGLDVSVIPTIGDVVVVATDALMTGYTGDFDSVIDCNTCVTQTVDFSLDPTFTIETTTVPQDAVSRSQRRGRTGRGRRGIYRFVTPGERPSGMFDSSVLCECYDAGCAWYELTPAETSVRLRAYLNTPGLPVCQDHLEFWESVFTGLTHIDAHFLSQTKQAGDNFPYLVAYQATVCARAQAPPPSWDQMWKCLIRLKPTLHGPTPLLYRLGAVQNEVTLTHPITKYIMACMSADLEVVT

In the next experiment the test system is gt 1b Replicon. The experiment in a line: HCV replicon assay, compound inhibitory potency (Replicon EC50). Here is the method:
Measurement of inhibition by compounds was performed using the HCV replicon system. Several different replicons encoding different HCV genotypes or mutations were used. In addition, potency measurements were made using different formats of the replicon assay, including different ways of measurements and different plating formats. See Jan M. Vrolijk et al., A replicons-based bioassay for the measurement of interferons in patients with chronic hepatitis C, 110 J. VIROLOGICAL METHODS 201 (2003); Steven S. Carroll et al., Inhibition of Hepatitis C Virus RNA Replication by 2′-Modified Nucleoside Analogs, 278(14) J. BIOLOGICAL CHEMISTRY 11979 (2003). However, the underlying principles are common to all of these determinations, and are outlined below. […]
To initiate an assay, replicon cells were plated in the presence of a dilution series of test compound in the absence of G418. […] For direct quantitation, RNA levels were measured by ^32P-probe hybridization and protection, or in a TAQMAN based assay and normalized to cellular cyclophilin A RNA levels. In some cases, luciferase activity was measured using a conventional luciferase assay. In all cases EC50 determinations were calculated as a percent of a DMSO control by fitting the data to a four parameter fit function.

In experiment [1] the target is NS3/4A protease gt 1b A156V (Hepatitis C virus genotype 1b, UniProt P26663, A1182V). The experiment in a line: HCV NS3 protease time-resolved fluorescence (TRF) assay, NS3/4A inhibitory activity (Ki), gt 1b A156V mutant. It counts as biochemical, hepatitis C virus (HCV). Conditions: read-out: Enzyme Activity gt lb A156V Ki; genotype 1b A156V mutant NS3/4A. As to the method: as §1, §2

The next experiment has as its target NS3/4A protease gt 1b (Hepatitis C virus genotype 1b, UniProt P26663). The experiment in a line: HCV NS3 protease time-resolved fluorescence (TRF) assay, NS3/4A inhibitory activity (Ki), gt 1b. The note with it: read-out: Enzyme Activity gt 1b Ki; genotype 1b NS3/4A. It is filed as biochemical. Here is the method:
as §1, §2

Like-named read-outs stand apart in the source and are kept apart here.

Regarding `C=C[C@@H]1C[C@]1(NC(=O)[C@@H]1C[C@@H]2CN1C(=O)[C@H](C1CCCC1)NC(=O)O[C@@H]1CCC[C@H]1CCCCCc1nc3ccccc3nc1O2)C(=O)NS(=O)(=O)C1CC1`, the Ki at NS3/4A protease gt 3a is 2.7 nM; in experiment [1], 8.2 nM; on NS3/4A protease gt 1b, 0.02 nM. The half-maximal effective concentration (EC50) is 3.3 nM in the experiment on gt 1b Replicon (read-out: gt 1b Replicon EC50 10% FBS, 10% Fetal Bovine Serum) and 20 nM in the experiment on gt 1b Replicon (read-out: gt 1b Replicon EC50 50% NHS, 50% Normal Human Serum).
With `C=C[C@@H]1C[C@]1(NC(=O)[C@@H]1C[C@@H]2CN1C(=O)[C@H](C1CCCC1)NC(=O)O[C@@]1(C)C[C@@H]1CC/C=C/Cc1c(nc3ccccc3c1O)O2)C(=O)NS(=O)(=O)C1CC1`, the Ki at NS3/4A protease gt 3a was determined as 21.8 nM; in experiment [1], 30 nM; on NS3/4A protease gt 1b it was 0.5 nM.

Source of the values: patent US20130178413A1, “HCV NS3 PROTEASE INHIBITORS” (priority 2010, published 2013).
